Earlier results, collected in patent US10144952B2, “Stabilization and isolation of extracellular nucleic acids” (QIAGEN GmbH, priority 2013, dated 2018).

Biological target: anthrax lethal factor, a metalloprotease (Bacillus anthracis, UniProt P15917)
Conditions: at ~20 μM; cited from earlier work

For `FC(F)(F)c1cccc(-c2csc(C3COc4ccccc4O3)n2)c1` (stereo not shown), the “effect on activity of anthrax lethal factor” value is listed as “assisted cleavage of BID, a proapoptotic protein. Weakly affects”.
